Article PMC9855371, “Antiparasitic Activity of Fluorophenyl-Substituted Pyrimido[1,2-a]benzimidazoles” (Biomedicines, 2023)

Columns and labels:
Assay type in all cases: cell-based
Toxoplasma gondii = Toxoplasma gondii tachyzoite (RH strain) growth in infected Vero cells, infection index; conditions: selectivity index (IC50/EC50)
Procedure: Serial passages of cells of the Vero cell line (ATCC® CCL81™, Manassas, VA, USA) were applied for the cultivation of T. gondii tachyzoites of the RH strain (a gift from Dr. Saeed El-Ashram, State Key Laboratory for Agrobiotechnology, China Agricultural University, Beijing, China). Vero cells were cultured by using complete RPMI 1640 medium with heat-inactivated 10% FBS in a humidified 5% CO2 atmosphere, at 37 °C. The 96-well plates (5 × 10^3 cells/well in 200 µL RPMI 1640 medium) were used for the cultivation of the Vero cells and then incubated, at 37 °C, and 5% CO2 for one day, followed by removal of medium and washing the cells with PBS. Then, RPMI 1640 medium containing 2% FBS and T. gondii tachyzoites (RH strain) was given to the cells at a ratio of 5 (parasite):1 (Vero cells). After incubation, at 37 °C, and 5% CO2 for 5 h, cells were washed with PBS and then treated as described below.
Control: RPMI 1640 medium containing DMSO (1%)
Experimental: Medium + compounds (dissolved in DMSO) (50, 25, 12.5, 6.25, 3.13, 1.65, and 0.75 µg mL^−1).
After incubation, at 37 °C, and 5% CO2 for 72 h, the cells were washed with PBS, fixed in 10% formalin and stained with 1% toluidine blue. Examination of the cells and determination of the infection index (number of cells infected from 200 cells tested) of T. gondii were carried out with an inverted photomicroscope. The following equation was used for the calculation of the inhibition in %:Inhibition (%) = (I Control − I Experimental)/(I Control) × 100 where “I Control” refers to the infection index of untreated cells and “I Experimental” refers to the infection index of cells treated with test compounds.
Then, effects of test compounds on parasite growth were expressed as EC50 (effective concentration at 50%) values. EC50 values were obtained from three independent experiments.

[1] = system: Leishmania major promastigotes; experiment: Leishmania major promastigote viability, MTT assay; conditions: selectivity index (IC50 Vero from Table 1/EC50 promastigotes)
[2] = system: Leishmania major amastigotes; experiment: Leishmania major amastigotes in peritoneal macrophages, percentage of infected macrophages (Giemsa); conditions: selectivity index (IC50 Vero from Table 1/EC50 amastigotes)

Row | Compound | SI (Vero/T. gondii) (Toxoplasma gondii) | SI Vero/Promastigotes [1] | SI Vero/Amastigotes [2]
1 | O=C1C(O)=C([C@H]2CC[C@H](c3ccc(Cl)cc3)CC2)C(=O)c2ccccc21 [ATO, atovaquone, reference compound] | 136 |  | 
2 | C[C@@H]1[C@H](O)[C@@H](C)/C=C/C=C/C=C/C=C/C=C/C=C/C=C/[C@H](O[C@@H]2O[C@H](C)[C@@H](O)[C@H](N)[C@@H]2O)C[C@@H]2O[C@](O)(C[C@@H](O)C[C@@H](O)[C@H](O)CC[C@@H](O)C[C@@H](O)CC(=O)O[C@H]1C)C[C@H](O)[C@H]2C(=O)O [AmB, Amphotericin B, reference compound] |  | 9.6 | 16.4
3 | N#CC1=C(N)n2c(nc3ccccc32)NC1c1cccc(F)c1 (stereo not drawn) [Compound 2a, 4-Amino-2-(3-fluorophenyl)-1,2-dihydropyrimido[1,2-a]benzimidazole-3-carbonitrile] | 0.94 | 11.1 | 21.6
4 | N#CC1=C(N)n2c(nc3ccccc32)NC1c1cc(F)cc(F)c1 (stereo not drawn) [Compound 2b, 4-Amino-2-(3,5-difluorophenyl)-1,2-dihydropyrimido[1,2-a]benzimidazole-3-carbonitrile] | 0.76 | 0.31 | 1.45
5 | N#CC1=C(N)n2c(nc3ccccc32)NC1c1ccccc1F (stereo not drawn) [Compound 2c] | 0.68 | 0.37 | 0.74
6 | N#CC1=C(N)n2c(nc3ccccc32)NC1c1ccc(F)cc1 (stereo not drawn) [Compound 2d] | 0.97 | 1.87 | 1.00
7 | COc1cc(C2Nc3nc4ccccc4n3C(N)=C2C#N)cc(Br)c1OC (stereo not drawn) [Compound 2e, 4-Amino-2-(3-bromo-4,5-dimethoxyphenyl)-1,2-dihydropyrimido[1,2-a]benzimidazole-3-carbonitrile] | 2.00 | 0.73 | 0.76
8 | N#Cc1c(-c2cccc(F)c2)nc2nc3ccccc3n2c1N [Compound 3a, 4-Amino-2-(3-fluorophenyl)pyrimido[1,2-a]benzimidazole-3-carbonitrile] | 1.07 | 1.08 | 1.37
9 | N#Cc1c(-c2cc(F)cc(F)c2)nc2nc3ccccc3n2c1N [Compound 3b, 4-Amino-2-(3,5-difluorophenyl)pyrimido[1,2-a]benzimidazole-3-carbonitrile] | 8.12 | 1.66 | 0.78
10 | N#Cc1c(-c2ccccc2F)nc2nc3ccccc3n2c1N [Compound 3c, 4-Amino-2-(2-fluorophenyl)pyrimido[1,2-a]benzimidazole-3-carbonitrile] | 1.24 | 0.80 | 0.95
11 | N#Cc1c(-c2ccc(F)cc2)nc2nc3ccccc3n2c1N [Compound 3d] | 1.04 | 1.18 | 1.67
12 | N#CC1=C(n2cccc2)n2c(nc3ccccc32)NC1c1cccc(F)c1 (stereo not drawn) [Compound 4a, 4-Pyrrolo-2-(3-fluorophenyl)-1,2-dihydropyrimido[1,2-a]benzimidazole-3-carbonitrile] | 1.05 | 1.72 | 0.69
13 | N#CC1=C(n2cccc2)n2c(nc3ccccc32)NC1c1cc(F)cc(F)c1 (stereo not drawn) [Compound 4b, 4-Pyrrolo-2-(3,5-difluorophenyl)-1,2-dihydropyrimido[1,2-a]benzimidazole-3-carbonitrile] | 1.78 | 1.12 | 0.70
14 | N#CC1=C(n2cccc2)n2c(nc3ccccc32)NC1c1ccccc1F (stereo not drawn) [Compound 4c, 4-Pyrrolo-2-(2-fluorophenyl)-1,2-dihydropyrimido[1,2-a]benzimidazole-3-carbonitrile] | 0.95 | 1.55 | 0.48
15 | N#CC1=C(n2cccc2)n2c(nc3ccccc32)NC1c1ccc(F)cc1 (stereo not drawn) [Compound 4d, 4-Pyrrolo-2-(4-fluorophenyl)-1,2-dihydropyrimido[1,2-a]benzimidazole-3-carbonitrile] | 1.19 | 1.29 | 0.80
